This experiment deals with Serine protease Rv3671c (Mycobacterium tuberculosis (strain ATCC 25618 / H37Rv)) (UniProt P9WHR9). Briefly: M. tuberculosis Rv3671c protease inhibition confirmation – biochemical, fluorescence polarization, M. tuberculosis H37Rv (AID 2761). Particulars: at 5.96 µM; stronger effect = higher value. In general terms: Fluorescence polarisation rises when a labelled molecule tumbles more slowly, as on binding a larger partner.

The chains behind the UniProt entries cited, without tags or fusion partners. Where a name states a change or a piece, a line headed by the entry shows the natural chain unless it says otherwise.
UniProt P9WHR9: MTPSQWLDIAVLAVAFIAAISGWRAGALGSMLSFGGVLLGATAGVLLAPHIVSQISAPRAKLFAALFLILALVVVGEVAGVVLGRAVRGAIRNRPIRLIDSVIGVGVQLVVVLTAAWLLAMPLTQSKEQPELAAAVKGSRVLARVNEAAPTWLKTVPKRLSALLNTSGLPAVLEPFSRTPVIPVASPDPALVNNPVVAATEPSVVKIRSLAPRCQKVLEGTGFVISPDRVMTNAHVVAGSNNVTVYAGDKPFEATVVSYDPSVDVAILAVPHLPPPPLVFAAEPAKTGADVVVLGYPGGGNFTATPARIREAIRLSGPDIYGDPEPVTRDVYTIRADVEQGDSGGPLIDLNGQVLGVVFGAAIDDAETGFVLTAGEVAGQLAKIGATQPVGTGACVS

Inhibition data for one molecule are collected here from PubChem BioAssay AID2761 (The Scripps Research Institute Molecular Screening Center, 2010).

This is a selection; strong and weak results do not stand in their true shares. Active and inactive are the calls of the source. No stated cut-off is given here; in the data, active means inhibition above about 38%; inactive means the rest.

A word on the inhibition: it is the change of the read-out against control, counted positive when it falls. For `O=[N+]([O-])c1cc([N+](=O)[O-])c(CCNc2ccccc2)c([N+](=O)[O-])c1`, the inhibition is inactive: 7.31%.
